Anti-infective test results gathered from many reports (values: NIAID ChemDB through PubChem).

All rows: target-level tests; organism: HIV-1; protein: Integrase; endpoint: IC50

a–b is a range or a potency band. ICn: concentration for n% inhibition. Conditions beyond the fields shown may differ between rows. An empty or dashed field is not shown.

compound	strain	mutations	read by	value
CCCC(C(=O)O)c1c(-c2ccccc2)c2cc(Cl)ccc2n(CCC)c1=O	-	-	strand transfer	>250 µM
CC(C)(C)C(O)Cc1cc(=O)c(O)c2n1CCN(Cc1ccc(F)cc1)C2=O	-	-	ELISA	0.01–0.1 µM
O=C(O)CCc1ccc(O)cc1	-	-	-	>100 µM
O=C(/C=C/c1ccc(O)c(O)c1)OCCc1ccccc1	-	-	3′ processing	5 µM
CC/C=C\CCO[C@@H]1O[C@H](CO)[C@@H](O)[C@H](O)[C@H]1O	-	-	strand transfer / absorbance	>100 µM
COc1ccc(C2=C3c4cc(OC)c(OC)cc4C=CN3C3C(=O)Oc4cc(O)c(OC)cc4C23)cc1O	-	-	-	>1600 µM
O=C1c2c(O)c(=O)c(-c3nccs3)cn2CCN1Cc1cccc(Cl)c1	-	-	ELISA	<0.01 µM
COC(=O)CCCC=C(c1ccc(OC)c(Cl)c1)c1ccc(OC)c(Cl)c1	-	-	3′ processing	23 µM
Cc1cnc2c(ccc3c(C)c(C)c(C)nc32)c1C	-	-	3′ processing	>100 µM
CN(C(=O)Cn1ccn2ccc(=O)c(O)c2c1=O)c1ccccc1	-	-	ELISA	0.1–1 µM
CC/C=C/C=C/CO[C@H]1O[C@@H](C)[C@H](O)[C@@H](O)[C@H]1O	-	-	strand transfer / absorbance	16 µM
Cc1cc(S(=O)(=O)/[NH+]=C2/N=C3C=C(c4ccc(Cl)cc4)SC3C(=O)N2Cc2ccccc2)c(S)cc1Cl	-	-	3′ processing	6 µM
Cc1cc(C(C)(C)C)cc(Cc2cc(C(C)(C)C)cc(Cc3cc(C(C)(C)C)cc(Cc4cc(C(C)(C)C)cc(C)c4OCC(=O)/C=C(\O)c4ccc(Cl)cc4)c3O)c2OCC(=O)/C=C(\O)c2ccc(Cl)cc2)c1O	-	-	strand transfer	>50 µM
COC(=O)CCC/C=C(/c1ccc(OC)c(C(C)=O)c1)c1cnccn1	-	-	3′ processing	1.3 µM
CCn1cc(C2=C(O)C(=O)NC2=O)c2ccccc21	-	-	strand transfer	300 µM
COc1ccc(-c2cncn2-c2ccc(Br)cc2)c(OC)c1	-	-	strand transfer / luminescence	7 µM
Cc1ccc(/C(O)=C/C(=O)COc2c(C)cc(C(C)(C)C)cc2Cc2cc(C(C)(C)C)cc(Cc3cc(C(C)(C)C)cc(Cc4cc(C(C)(C)C)cc(C)c4O)c3OCC(=O)/C=C(\O)c3ccc(C)cc3)c2O)cc1	-	-	strand transfer	>50 µM
Cc1cc(S(=O)(=O)NC2=NC3C=CSC3C(=O)N2)c(SCOc2ccccc2)cc1Cl	-	-	3′ processing	>100 µM
Cc1ccc(-c2c([C@H](OC(C)(C)C)C(=O)O)c(C)nc3ccccc23)cc1C	-	T174I	strand transfer / fluorescence	0.758 µM
COc1cccc(-c2cncn2C2CCCCC2)c1	-	-	strand transfer / luminescence	21.9 µM
Cc1cc2c(c3c1[nH]c1ccc(O)cc13)C(=O)N(CCN(C)C)C2=O	-	-	ELISA / strand transfer / luminescence	7.94 µM
O=C(/C=C/c1ccc(O)c(O)c1)OCCc1ccccc1N=C=S	-	-	3′ processing	3 µM
CC(O)CNC(=O)c1cn2ccn(Cc3cccc(Cl)c3)c(=O)c2c(O)c1=O	-	-	ELISA	0.01–0.1 µM
CC1=CC2CC[C@@H](O)[C@H](C)C2[C@@H](/C(O)=C2/C(=O)NC(O)C2=O)[C@@H]1C[C@H]1OC2(CC[C@H](C)[C@@H](c3cc(O)cc(O)c3)O2)[C@@H](C)C[C@@H]1C	-	-	strand transfer	4 µM
O=C(/C=C/c1ccc(O)c(O)c1)OCCc1cccc(N=C=S)c1	-	-	3′ processing	3 µM
COc1ccc(/C(O)=C/C(=O)COc2c(C)cc(C(C)(C)C)cc2Cc2cc(C(C)(C)C)cc(Cc3cc(C(C)(C)C)cc(Cc4cc(C(C)(C)C)cc(C)c4O)c3OCC(=O)/C=C(\O)c3ccc(OC)cc3)c2O)cc1	-	-	strand transfer	>50 µM
C=CCOc1ccc(C[C@H](NC(=O)OCc2ccccc2)C(=O)N[C@@H](CCCCN)C(=O)NCCCC(=O)OC)cc1	-	-	strand transfer	2.5 µM
CN(C)CCN1C(=O)c2ccc3[nH]c4cc(O)c(O)cc4c3c2C1=O	-	-	ELISA / strand transfer / luminescence	17.37 µM
O=C(/C=C/c1ccc(O)c(O)c1)Oc1ccc2c(N=C=S)cccc2c1	-	C65S	3′ processing	7 µM
Cc1cc(C(C)(C)C)cc(Cc2cc(C(C)(C)C)cc(Cc3cc(C(C)(C)C)cc(Cc4cc(C(C)(C)C)cc(C)c4OCC(=O)/C=C(\O)c4ccccc4)c3O)c2OCC(=O)/C=C(\O)c2ccccc2)c1O	-	-	strand transfer	>50 µM
O=C(/C=C(\O)c1cccc(OCc2ccccc2)c1)C(=O)NC1CCC(NC(=O)C(=O)/C=C(\O)c2cccc(OCc3ccccc3)c2)CC1	-	-	3′ processing	>100 µM
Cc1cc(/C(O)=C/c2cc(CCc3ccccc3)ncn2)co1	-	-	strand transfer	0.84 µg/mL
COC(=O)CCCCC(=O)c1cc(C)c(OC)c(C(=O)OC)c1	-	-	3′ processing	500 µM
Cc1cc2c(c3c1[nH]c1cc(F)c(O)cc13)C(=O)N(CCN(C)C)C2=O	-	-	ELISA / strand transfer / luminescence	4.38 µM
COC(=O)c1cc(-c2ccccc2)on1	-	-	strand transfer	>1000 µM
CC(=O)N(C)CCN(C)c1nc(C(=O)NCc2ccc(F)cc2)c(O)c2ncccc12	HXB2	-	strand transfer	0.03 µM
Cc1cc(O)cc2c1[nH]c1c(C)cc3c(c12)C(=O)N(CCN(C)C)C3=O	-	-	ELISA / strand transfer / luminescence	8.99 µM
CC(C)C[C@H](NC(=O)[C@H](CC(C)C)NC(=O)[C@H](Cc1cnc[nH]1)NC(=O)[C@H](CCC(=O)O)NC(=O)[C@H](CC(C)C)NC(=O)[C@@H](N)Cc1cnc[nH]1)C(=O)N[C@@H](Cc1ccccc1)C(=O)O	-	-	strand transfer	>500 µM
CC(C)Nc1cn2ccn(Cc3cccc(Cl)c3)c(=O)c2c(O)c1=O	-	-	ELISA	0.01–0.1 µM
CN(C)CCN1C(=O)c2ccc3[nH]c4ccc(Cl)cc4c3c2C1=O	-	-	strand transfer / luminescence	22.5 µM
O=C(O)/C(O)=C/c1cnc(OCc2ccccc2)cn1	-	-	strand transfer	0.61 µg/mL
COc1ccc2[nH]c3c(OC)cc4c(c3c2c1)C(=O)N(CCN(C)C)C4=O	-	-	ELISA / strand transfer / luminescence	16.92 µM
[N-]=[N+]=NCc1ccc(C(=O)c2cccc(/C(O)=C/C(=O)C(=O)O)c2)cc1	-	-	strand transfer	33.7 µM
C=C(C=O)[C@@H]1C[C@@]2(C)C(=CC1=O)[C@H](OC(=O)/C(C)=C\C(C)CCCC)CC[C@@H]2C(=O)O	-	-	3′ processing	10 µM
CC/C=C\C=C\CO[C@H]1O[C@@H](C)[C@H](O)[C@@H](O)[C@H]1O	-	-	strand transfer / absorbance	>100 µM
O=C(/C=C/c1ccccc1)OCCc1ccc(N=C=S)cc1	-	C65S	3′ processing	>100 µM
O=C(CC(=O)c1ccccc1O)c1ccccc1	-	-	strand transfer	333 µM
Cc1cccc(Cc2cccc(Cc3cccc(Cc4cccc(C)c4OCC(=O)/C=C(\O)c4ccccc4)c3O)c2OCC(=O)/C=C(\O)c2ccccc2)c1O	-	-	strand transfer	16.3 µM
O=C(/C=C/c1ccc(O)c(O)c1)O[C@H]1[C@H](O)[C@@H](O)[C@H](Oc2cc(O)c3c(=O)cc(-c4ccc(O)cc4)oc3c2)O[C@@H]1C(=O)O	-	-	-	7.2 µg/mL
COc1cc(Cl)ccc1Cn1ccn2ccc(=O)c(O)c2c1=O	-	-	ELISA	0.01–0.1 µM
COC(=O)C(=O)/C=C(\O)c1ccccc1F	-	-	3′ processing	>100 µM
O=C(CCCC[C@@H]1SC[C@@H]2NC(=O)N[C@@H]21)NCc1cn(Cc2ccc(C(=O)c3cccc(/C(O)=C/C(=O)C(=O)O)c3)cc2)nn1	-	-	3′ processing	136.7 µM
O=C(/C=C(\O)c1ccc(Cc2ccc(F)cc2)o1)c1cccs1	-	-	strand transfer	>100 µg/mL
C=CCOc1ccc(C[C@H](NC(C)=O)C(=O)N[C@@H](CCCCN)C(=O)NCCCCC(=O)OC)cc1	-	-	strand transfer	9 µM
COc1cc(/C=C/C(=O)O)ccc1O	-	-	-	9.35 µM
CC(C)[C@H](NC(=O)OCc1ccccc1)C(=O)N[C@@H](Cc1ccc(OCc2ccccc2)cc1)C(=O)C(F)(F)C(=O)N1CCc2ccccc2C1	-	-	3′ processing	22 µM
O=c1c(-c2ccccc2Cl)cn2ccn(Cc3cccc(Cl)c3)c(=O)c2c1O	-	-	ELISA	<0.01 µM
Cc1cnc2c(ccc3c(C)c(C)cnc32)c1C	-	-	3′ processing	>100 µM
Fc1ccc(-c2cncn2-c2ccc(Br)cc2)cc1	-	-	strand transfer / luminescence	25.1 µM
COc1ccc2[nH]c3c4[nH]c5ccccc5c4c4c(c3c2c1)C(=O)N(c1ccccc1)C4=O	-	-	ELISA / strand transfer / luminescence	>100 µM

A second listing of 6 rows from above:

compound	strain	mutations	read by	value
CC(=O)N(C)CCN(C)c1nc(C(=O)NCc2ccc(F)cc2)c(O)c2ncccc12	HXB2	-	strand transfer	0.03 µM
COC(=O)CCC/C=C(/c1ccc(OC)c(C(C)=O)c1)c1cnccn1	-	-	3′ processing	1.3 µM
CCCC(C(=O)O)c1c(-c2ccccc2)c2cc(Cl)ccc2n(CCC)c1=O	-	-	strand transfer	>250 µM
Cc1cc(C(C)(C)C)cc(Cc2cc(C(C)(C)C)cc(Cc3cc(C(C)(C)C)cc(Cc4cc(C(C)(C)C)cc(C)c4OCC(=O)/C=C(\O)c4ccc(Cl)cc4)c3O)c2OCC(=O)/C=C(\O)c2ccc(Cl)cc2)c1O	-	-	strand transfer	>50 µM
O=c1c(-c2ccccc2Cl)cn2ccn(Cc3cccc(Cl)c3)c(=O)c2c1O	-	-	ELISA	<0.01 µM
Cc1cnc2c(ccc3c(C)c(C)cnc32)c1C	-	-	3′ processing	>100 µM